# Primary screen of a compound library

Source: ChEMBL document CHEMBL3988442, “University of Dundee, Small-Polar-MMV Screening Library” (2021).

Mtb glucose medium: 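Growth of Mycobacterium tuberculosis over 3 days (7H9 medium with glucose and tyloxapol); the read-out is not stated. Compounds at 500 µM. Direction is inferred from retests: higher values go with more growth inhibition. About 18,000 compounds were tested under these conditions; 7.9% (about 1,400) showed 50% or more at least once.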
Mtb cholesterol medium: 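Phenotypic screen: M. tuberculosis growth, cholesterol and DPPC medium, 4 days; the read-out is not stated. Compounds at 500 µM. The record gives no direction; compounds that gave an IC50 in retests scored well above the rest, so higher reads as more growth inhibition. Of about 18,000 compounds tested this way, about 900 (5%) reached 50% or more in at least one test.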

Each number is a percent effect as filed.
The controls that fix the scale are not given in the record; negative values are as filed.
Many other results are left out here, so strong results are more common than in the screen.
A dash means the value is not listed here; it may have been measured.

SMILES	Mtb glucose medium	Mtb cholesterol medium
CC(C)c1cc(C(=O)N2CC[C@@H](N)C2)nn1C(C)(C)C	50.85	20.36
CC1CCCN(CC(=O)NC2(C#N)CCCC2)C1 (stereo unspecified)	-6.481	-
CCOCCN(C)Cc1csnn1	-	6.229
NCCNC(=O)c1nc(Cn2cc(Br)cn2)no1	23.41	-
O=C(CNCC1CC1)Nc1ccccc1	50.25	-
NCc1cn2cc(Cl)ccc2n1	-	-3.086
OCCOCCN1CCN(c2ccccc2F)CC1	4.336	2.104
O=S(=O)(NCCNc1ccccn1)c1cccnc1	3.618	-45.4
O=C(Nc1ncco1)NC1CCN(c2ccccn2)C1 (stereo unspecified)	3.229	-
CN(C)C(CNS(=O)(=O)c1c[nH]cn1)C1CCCCC1 (stereo unspecified)	-	-11.59
Cc1ccc(NC(=O)C(C)N2CCC(O)CC2)cc1F (stereo unspecified)	61.53	54.47
CC(C)[C@@H](CCN)NC(=O)OC(C)(C)C	5.318	-
NC(=O)C1CCN(CCSc2ccccc2)CC1	20.96	-
CN(C)CCN(C)Cc1ccc(N)nc1	6.795	-3.159
CCn1cnnc1C(C)NC(=O)c1cc(CO)ccn1 (stereo unspecified)	-	-0.8517
CC(C)(C)OC(=O)N[C@@H]1[C@@H]2CNC[C@H]1CS(=O)(=O)C2	-9.878	-
CC(NC(=O)c1sccc1C1CC1)C(N)=O (stereo unspecified)	12.98	10.19
CCN(Cc1c(F)cccc1F)S(C)(=O)=O	8.828	-
O=C(c1cccc(C(F)(F)F)c1)N1CCC(O)CC1	19.02	-
CN1CCC(N(C)C(=O)CCN)CC1	-	6.2
Cc1noc(C)c1S(=O)(=O)NCC1CCCOC1 (stereo unspecified)	1.546	-
Cc1nccn1CCNC(=O)OC(C)(C)C	-2.621	-
Cc1csc(NC(=O)Cn2ccc(=O)n(C)c2=O)n1	15.72	-
CCn1c(N)nc2cc(CO)ccc21	-	3.738
O=S(=O)(c1cccnc1)N1CCOCC1	4.835	-
CC(C)OCCCNC(=O)CNC(=O)C1CCCCC1	3.741	-
Cc1c(NC(N)=O)c(=O)n(-c2ccccc2)n1C	-10.74	-
Cc1cnn(CCNCc2ccc3c(c2)OCCO3)c1	79.62	77.27
O=C(Nc1cccc(N2CCNC2=O)c1)C1CCCO1 (stereo unspecified)	14.85	-
COC(C)CCC(=O)Nc1cnccn1 (stereo unspecified)	-	-7.255
O=C(CCN1CCC[C@H]1CO)N1CCc2ccccc21	4.499	-
CC(CCc1cccc(F)c1)N1CCNC(=O)CC1 (stereo unspecified)	17.58	-
Nc1cc(-c2cccnc2)on1	88.65	-
O=S(=O)(CCN1CCCC1)c1ccccc1	21.45	21.65
CCc1ccc(CN(C)C(=O)c2cccc(N)n2)nc1	23.66	6.551
CC(C)C(C)(C#N)NC(=O)CSc1nncn1C (stereo unspecified)	-	3.044
CC(CNC(=O)c1cc(O)cs1)CN1CCOCC1 (stereo unspecified)	-5.445	-
CCOc1c(Cl)cc(CN)cc1OC	-	4.327
NCCCSc1ccccn1	7.215	-
COc1cccc(N2CCC(CN)C2)c1 (stereo unspecified)	87.08	90.94
COC(=O)c1ccccc1NC(=O)N1CC[C@@H](O)C1	-	-0.02539
CC(=O)NCc1ccc(C(=O)CSc2ccccn2)s1	51.43	-
CN(C)CCOc1ccc(NS(C)(=O)=O)cc1	-9.327	-3.19
c1ccc(CCNCCCN2CCOCC2)cc1	-	21.35
Cn1cccc1C(=O)OCCCN1CCOCC1	-	13.7
CC(C)[C@H](N)C(=O)N1CCc2c(F)cccc2C1	-	10.81

5 of the entries, repeated:

- CCc1ccc(CN(C)C(=O)c2cccc(N)n2)nc1 | Mtb glucose medium: 23.66%; Mtb cholesterol medium: 6.551%
- Cc1c(NC(N)=O)c(=O)n(-c2ccccc2)n1C | Mtb glucose medium: -10.74%
- O=C(c1cccc(C(F)(F)F)c1)N1CCC(O)CC1 | Mtb glucose medium: 19.02%
- CCn1c(N)nc2cc(CO)ccc21 | Mtb cholesterol medium: 3.738%
- Cn1cccc1C(=O)OCCCN1CCOCC1 | Mtb cholesterol medium: 13.7%